## Potato spindle tuber viroid, loop 6: variant abundance in plants

Source: Wu et al. 2024 (doi:10.1371/journal.ppat.1012142), supplementary data.

The pool varies loop 6 of the PSTVd intermediate strain in the pattern UNNNCGNNNG; wild type is UGACCGCGAG (upper and lower strand joined, each 5' to 3', the first 5 letters being the upper strand, closing pairs included).

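A pool of all variants was put on leaves of three Nicotiana benthamiana plants. Samples came from the inoculated region at 5 days, the leaf margin at 10 and upper systemic leaves at 12.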

Values are reads per thousand in the sample; higher means more abundant, 0 means not found.
Each site shows the three plants.
"Pool" is the share in the plasmid pool used as inoculum, on the same scale.
The inoculated region was read from the minus strand, the other sites from the plus strand.
Wild type was 20.7 per thousand in the pool and the most common sequence in every sample (inoculated region 195, 198, 203; leaf margin 629, 591, 734; systemic leaves 942, 870, 868).
Samples held 36,220 to 57,551 reads, so the smallest values rest on one or two reads.
The authors trace changes outside the varied positions to PCR and sequencing errors or to mutation in the plant; presence does not show that a variant is infectious alone.

sequence,pool,inoculated region,leaf margin,systemic leaves
UGGCCGUUUG,0.405,0.122 0.162 0.221,0.0552 0 0,0 0.0202 0
UGGCCUAACG,0.0131,0 0 0,0 0 0,0 0 0
UGGCCUGUCC,0.0131,0 0 0.0184,0 0 0,0 0 0
UGGCCUGUGG,0.0131,0 0 0,0 0 0,0 0 0
UGGCUGUGAG,0.0131,0.539 0.629 0.332,0.110 0.0252 0.0696,0 0 0
UGGGCACUCA,0.0131,0 0 0,0 0 0,0 0 0
UGGGCGAAAG,0.170,0.0695 0.0539 0.111,0 0 0,0 0 0
UGGGCGAACG,0.183,0.156 0.0359 0.0922,0 0 0,0 0 0
UGGGCGAAGG,0.0784,0.0869 0.0898 0.0369,0 0 0.0232,0 0 0
UGGGCGAAUG,0.261,0.0521 0.0539 0.0922,0 0 0,0 0 0
UGGGCGACAG,0.196,0.122 0.0539 0.148,0 0 0,0 0 0
UGGGCGACCG,0.118,0.0695 0.0180 0.0184,0 0 0,0 0 0
UGGGCGACGG,0.222,0.0869 0.108 0.0738,0 0 0,0 0 0
UGGGCGACUG,0.144,0.122 0.0359 0.0553,0 0 0.0232,0 0 0
UGGGCGAGAG,0.261,0.0695 0.0898 0.166,0 0 0.0232,0 0 0
UGGGCGAGCG,0.170,0.122 0.0359 0.0184,0 0 0.0232,0 0 0
UGGGCGAGGG,0.170,0.156 0.144 0.0553,0 0 0,0 0 0
UGGGCGAGUG,0.248,0.122 0.0180 0.0369,0.0276 0 0,0 0 0
UGGGCGAUAG,0.261,0.139 0.126 0.148,0.0276 0 0.209,0 0 0
UGGGCGAUCG,0.288,0.0869 0.0898 0.0922,0 0 0,0 0 0
UGGGCGAUGG,0.235,0.0174 0.0898 0.0369,0 0 0,0 0 0
UGGGCGAUUG,0.196,0.104 0.126 0.111,0 0 0.0232,0 0 0
UGGGCGCAAG,0.0784,0.0869 0.0898 0.129,0 0 0.0696,0 0 0
UGGGCGCACG,0.196,0.0695 0.0359 0.0922,0.0276 0 0,0 0 0
UGGGCGCAGG,0.157,0.0695 0.0719 0.111,0 0 0,0 0 0
UGGGCGCAUG,0.0915,0.104 0.0898 0.0738,0 0 0,0 0 0
UGGGCGCCAG,0.0784,0.0348 0.108 0.0922,0 0 0.0232,0 0 0
UGGGCGCCCG,0.327,0.122 0.0539 0.0553,0 0 0,0 0 0
UGGGCGCCGG,0.118,0.0521 0.0539 0.0369,0.0276 0 0.0232,0 0 0
UGGGCGCCUG,0.222,0.0869 0.0719 0.0553,0 0 0,0 0 0
UGGGCGCGAG,0.0915,0.0869 0.0719 0.0738,0.0828 0.0252 0,0 0 0.0205
UGGGCGCGCG,0.105,0.122 0.108 0.111,0.0276 0 0,0 0 0
UGGGCGCGGG,0.144,0.104 0.0539 0.0738,0 0 0.0232,0 0 0
UGGGCGCGUG,0.105,0.139 0.0898 0.0922,0 0 0,0 0 0
UGGGCGCUAG,0.0523,0.0695 0.108 0.148,0 0 0,0 0 0
UGGGCGCUCG,0.183,0.139 0.0719 0.0553,0 0 0.0232,0 0 0
UGGGCGCUGG,0.118,0.104 0.0539 0.0184,0 0 0,0 0 0
UGGGCGCUUG,0.366,0.122 0.180 0.0738,0.0276 0 0,0 0 0
UGGGCGGAAG,0.0784,0.0521 0.0180 0.0369,0 0 0,0 0 0
UGGGCGGACG,0.248,0.122 0.0719 0.0184,0.0276 0 0,0 0 0
UGGGCGGAGA,0.0131,0 0 0,0 0 0,0 0 0
UGGGCGGAGG,0.183,0.0521 0.0359 0,0 0 0,0 0 0
UGGGCGGAGU,0.0261,0 0 0,0 0 0,0 0 0
UGGGCGGAUG,0.157,0.0174 0.0539 0.0738,0.110 0 0,0 0 0
UGGGCGGCAG,0.144,0.0521 0.0898 0.0369,0 0 0,0 0 0
UGGGCGGCCG,0.248,0.122 0.0539 0.0369,0 0 0,0 0 0
UGGGCGGCGG,0.144,0.122 0.0898 0.0922,0 0 0,0 0 0
UGGGCGGCUG,0.196,0.0348 0.0719 0.0369,0 0 0.0232,0 0 0
UGGGCGGGAG,0.157,0.608 0.557 0.461,0.166 0.0504 0.0232,0.0180 0.0404 0.0410
UGGGCGGGCG,0.144,0.0695 0.0180 0.0369,0 0 0.0232,0 0 0
UGGGCGGGGG,0.196,0.0869 0.0539 0.0553,0 0 0,0 0 0
UGGGCGGGUG,0.105,0.139 0.0180 0.111,0 0 0,0 0.0606 0
UGGGCGGUAG,0.209,0.0869 0.0719 0.0738,0.0276 0 0.0232,0 0 0
UGGGCGGUCG,0.157,0.0695 0.144 0.0553,0 0 0,0 0 0
UGGGCGGUGG,0.209,0.0348 0.144 0.0184,0 0 0,0 0 0
UGGGCGGUUG,0.275,0.104 0.0719 0.0369,0 0 0.0232,0 0 0

Extract of 3 entries:

sequence,pool,inoculated region,leaf margin,systemic leaves
UGGGCGAUCG,0.288,0.0869 0.0898 0.0922,0 0 0,0 0 0
UGGGCGACGG,0.222,0.0869 0.108 0.0738,0 0 0,0 0 0
UGGGCGCCUG,0.222,0.0869 0.0719 0.0553,0 0 0,0 0 0